Data as given in PubChem BioAssay AID624099 (ICCB-Longwood, 2012)

- Test: 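Human genes that papillomavirus E2 requires to repress the HPV18 LCR promoter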 (primary screen)
- System: human C33A cervical carcinoma cells (HPV-negative) stably expressing BPV1 E2 and an HPV18 LCR luciferase reporter
- Knock-down reagent: siRNA pool against human genes, 40 nM
- Time to read-out: 72 h
- Measurement: 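Per-well luciferase luminescence, z-scored on each plate against the plate mean and SD with control wells left out, then averaged across three replicate plates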
- Scale: mean z-score and z-score: higher = stronger reporter signal, weaker E2 silencing
- Active means: 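Mean z ≥ 2 together with z ≥ 2 in two or more of the three replicates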
Here is one part, drawn at random, of about 21,000 deposited reagents. 497 of all reagents (2.4%) count as active. 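Higher z means weaker E2 silencing; only reporter increases were scored, and knock-downs that hurt cell survival may mask genuine repressor factors.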 No sequences are given here.

gene	mean z-score	z-score, replicate A	z-score, replicate B	z-score, replicate C	outcome
KCTD8 (potassium channel tetramerization domain containing 8)	0.44	0.03	0.45	0.86	inactive
PIGY (phosphatidylinositol glycan anchor biosynthesis class Y)	1.06	1.16	0.9	1.12	inactive
DMGDH (dimethylglycine dehydrogenase)	1.07	1.22	1.17	0.83	inactive
KIAA2013	0.42	0.63	0.53	0.12	inactive
EXOSC6 (exosome component 6)	-0.81	-0.42	-0.78	-1.23	inactive
FTO (FTO alpha-ketoglutarate dependent dioxygenase)	-0.36	-0.44	-0.24	-0.38	inactive
DAG1 (dystroglycan 1)	0.34	0.19	0.52	0.33	inactive
C1orf220 (chromosome 1 putative open reading frame 220)	-0.34	-0.38	-0.13	-0.51	inactive
PCDHB16 (protocadherin beta 16)	0.52	0.89	0.8	-0.12	inactive
SPEN (spen family transcriptional repressor)	-0.37	-0.81	-0.4	0.11	inactive
POLRMT (RNA polymerase mitochondrial)	0.34	0.39	0.56	0.09	inactive
TNFRSF4 (TNF receptor superfamily member 4)	-0.89	-1	-0.93	-0.75	inactive
RAB21 (RAB21, member RAS oncogene family)	0.3	0.45	0.06	0.38	inactive
PPIE (peptidylprolyl isomerase E)	1.04	1.07	1.01	1.04	inactive
SUV39H1 (SUV39H1 histone lysine methyltransferase)	1.46	0.95	1.59	1.83	inactive
IRF8 (interferon regulatory factor 8)	-0.05	0.22	-0.1	-0.27	inactive
CYGB (cytoglobin)	2	1.96	2.04	1.99	inactive
PCDH8 (protocadherin 8)	0.62	0.83	0.74	0.28	inactive
CEACAM5 (CEA cell adhesion molecule 5)	0.18	0.39	0.41	-0.26	inactive
ANKRD9 (ankyrin repeat domain 9)	-1.34	-1.27	-1.35	-1.4	inactive
ATP5PF (ATP synthase peripheral stalk subunit F6)	0.81	0.71	0.65	1.07	inactive
CDK4 (cyclin dependent kinase 4)	1.05	0.98	0.97	1.2	inactive
TRIM50 (tripartite motif containing 50)	-0.95	-0.7	-0.7	-1.44	inactive
LCP1 (lymphocyte cytosolic protein 1)	0.57	0.72	0.42	0.56	inactive
LOC388709 (retired record)	-1.18	-1.34	-0.98	-1.21	inactive
GNAZ (G protein subunit alpha z)	-0.84	-1.12	-0.51	-0.87	inactive
ARL11 (ARF like GTPase 11)	-0.62	-0.59	-0.58	-0.68	inactive
METTL4 (methyltransferase 4, N6-adenosine)	-0.26	-0.36	-0.12	-0.29	inactive
ATP1B2 (ATPase Na+/K+ transporting subunit beta 2)	0.35	0.43	0.45	0.18	inactive
RTP1 (receptor transporter protein 1)	-0.89	-0.69	-1.17	-0.8	inactive
BDKRB1 (bradykinin receptor B1)	-0.67	-0.7	-0.79	-0.51	inactive
LOC388638 (retired record)	0.06	0.56	-0.12	-0.25	inactive
LOC400847 (retired record)	-1.97	-2.14	-2.11	-1.64	inactive
MARCHF5 (membrane associated ring-CH-type finger 5)	0.58	0.3	0.76	0.69	inactive
CCDC62 (coiled-coil domain containing 62)	-0.48	-0.74	-0.35	-0.34	inactive
SRSF3 (serine and arginine rich splicing factor 3)	0.44	-0.03	0.74	0.6	inactive
POM121L9P (POM121 transmembrane nucleoporin like 9, pseudogene)	-0.2	0.11	-0.08	-0.62	inactive
DUSP9 (dual specificity phosphatase 9)	0.27	0.24	0.34	0.24	inactive
CDIN1 (CDAN1 interacting nuclease 1)	-1.64	-1.85	-1.64	-1.42	inactive
AMDHD2 (amidohydrolase domain containing 2)	-0.35	-0.54	-0.43	-0.07	inactive
SNAPC5 (small nuclear RNA activating complex polypeptide 5)	-0.1	-0.25	0	-0.06	inactive
MX1 (MX dynamin like GTPase 1)	-0.27	-0.52	-0.35	0.04	inactive
SCIN (scinderin)	0.3	0.37	0.12	0.41	inactive
USPL1 (ubiquitin specific peptidase like 1)	-0.4	0.46	-0.85	-0.8	inactive
RHBDD2 (rhomboid domain containing 2)	0.54	0.72	0.84	0.06	inactive
ZNF420 (zinc finger protein 420)	-0.05	0.2	-0.01	-0.35	inactive
SMPDL3B (sphingomyelin phosphodiesterase acid like 3B)	0.07	0.11	0.08	0	inactive
POLA1 (DNA polymerase alpha 1, catalytic subunit)	0.34	0.18	0.29	0.56	inactive
LOC402188 (retired record)	-0.84	-1.19	-0.75	-0.59	inactive
ABRAXAS1 (abraxas 1, BRCA1 A complex subunit)	-1.15	-1.44	-1.15	-0.86	inactive
VMA21 (vacuolar ATPase assembly factor VMA21)	0.66	0.66	0.81	0.52	inactive
RASA3 (RAS p21 protein activator 3)	1.32	1.18	1.16	1.62	inactive
GNAI3 (G protein subunit alpha i3)	0.77	0.78	0.69	0.84	inactive
ITGA4 (integrin subunit alpha 4)	-0.76	-0.75	-0.84	-0.68	inactive
ARSJ (arylsulfatase family member J)	0.7	0.77	1.05	0.28	inactive
LOC399921 (retired record)	1.53	1.99	1.19	1.4	inactive
ADNP2 (ADNP homeobox 2)	-1.15	-0.93	-1.27	-1.24	inactive

In a second layout: 3 of the entries above.
{"gene":"LCP1 (lymphocyte cytosolic protein 1)","mean z-score":0.57,"z-score, replicate A":0.72,"z-score, replicate B":0.42,"z-score, replicate C":0.56,"outcome":"inactive"}
{"gene":"LOC388709 (retired record)","mean z-score":-1.18,"z-score, replicate A":-1.34,"z-score, replicate B":-0.98,"z-score, replicate C":-1.21,"outcome":"inactive"}
{"gene":"GNAZ (G protein subunit alpha z)","mean z-score":-0.84,"z-score, replicate A":-1.12,"z-score, replicate B":-0.51,"z-score, replicate C":-0.87,"outcome":"inactive"}
